The values below come from patent US10765662B2, “Mono- or di-substituted indole derivatives as dengue viral replication inhibitors” (Janssen Pharmaceuticals, Inc., priority 2015, dated 2020).

Where only a bound is given, the exact number is not on record here.

Assay type in all cases: cell-based, Dengue virus
For one data set, the system named is DENV-4 strain H241. As to the kind of experiment: Tetravalent RT-qPCR assay Protocol A, serotype 4 H241. To be noted: RT-qPCR serotype 4 H241. The procedure:
(§1) The antiviral activity of the compounds of the invention was tested against DENV-1 strain TC974#666 (NCPV), DENV-2 strain 16681, DENV-3 strain H87 (NCPV) and DENV-4 strains H241 (NCPV) and EDEN (SG/06K2270DK1/2005; GenBank accession number QG398256) in a RT-qPCR assay. Therefore, Vero cells were infected with either DENV-1, or -2, or -3, or -4 in the presence or absence of test compounds. At day 3 post-infection, the cells were lysed and cell lysates were used to prepare cDNA of both a viral target (the 3′UTR of DENV; Table 2) and a cellular reference gene (β-actin, Table 2). Subsequently, a duplex real time PCR was performed on a Lightcycler480 instrument. The generated Cp value is inversely proportional to the amount of RNA expression of these targets. Inhibition of DENV replication by a test compound results in a shift of Cp's for the 3′UTR gene. On the other hand, if a test compound is toxic to the cells, a similar effect on β-actin expression will be observed. The comparative ΔΔCp method is used to calculate EC50, which is based on the relative gene expression of the target gene (3′UTR) normalized with the cellular housekeeping gene (β-actin). In addition, CC50 values are determined based on the Cp values acquired for the housekeeping gene β-actin.
(§2) The culture medium consisted of minimal essential medium supplemented with 2% of heat-inactivated fetal calf serum, 0.04% gentamycin (50 mg/mL) and 2 mM of L-glutamine. Vero cells, obtained from ECACC, were suspended in culture medium and 75 μL/well was added in 96-well plates (10000 cells/well), which already contain the antiviral compounds. […] In addition, each plate contains wells which are assigned as virus controls (containing cells and virus in the absence of compound) and cell controls (containing cells in the absence of virus and compound). Once the cells were added in the plates, the plates were incubated in a fully humidified incubator (37° C., 5% CO2) until the next day. Dengue viruses serotype-1, 2, 3 and 4 were diluted in order to obtain a Cp of ˜22-24 in the assay. Therefore, 25 μL of virus suspension, was added to all the wells containing test compound and to the wells assigned as virus control. In parallel, 25 μL of culture medium was added to the cell controls. Next, the plates were incubated for 3 days in a fully humidified incubator (37° C., 5% CO2). After 3 days, the supernatant was removed from the wells and the cells were washed twice with ice-cold PBS (˜100 μL). The cell pellets within the 96-well plates were stored at −80° C. for at least 1 day. Next, RNA was extracted using the Cells-to-CT™ lysis kit, according to the manufacturer's guideline (Life Technologies). The cell lysates can be stored at −80° C. or immediately used in the reverse transcription step.
(§3) In preparation of the reverse transcription step, mix A (table 3A) was prepared and 7.57 μL/well was dispensed in a 96-well plate. After addition of 5 μL of the cell lysates, a five minute denaturation step at 75° C. was performed (table 3B). Afterwards, 7.43 μL of mix B was added (table 3C) and the reverse transcription step was initiated (table 3D) to generate cDNA.
(§4) Finally, a RT-qPCR mix was prepared, mix C (table 4A), and 22.02 μL/well was dispensed in 96-well LightCycler qPCR plates to which 3 μL of cDNA was added and the qPCR was performed according to the conditions in table 4B on a LightCycler 480.
(§5) Using the LightCycler software and an in-house LIMS system, dose response curves for each compound were calculated and the half maximal effective concentration (EC50) and the half maximal cytotoxic concentration (CC50) were determined (Tables 5-8).
(In qPCR the cycle at which signal appears reflects the starting amount.)

The test system of data set [1] is DENV-2 16681 strain labeled with enhanced green fluorescent protein. Put plainly: DENV-2 antiviral assay (eGFP fluorescence read-out in Vero cells). To be noted: SI=CC50/EC50, DENV-2 antiviral assay. As for the experimental part:
The antiviral activity of all the compounds of the invention was tested against the DENV-2 16681 strain which was labeled with enhanced green fluorescent protein (eGPF). The culture medium consists of minimal essential medium supplemented with 2% of heat-inactivated fetal calf serum, 0.04% gentamycin (50 mg/mL) and 2 mM of L-glutamine. Vero cells, obtained from ECACC, were suspended in culture medium and 25 μL was added to 384-well plates (2500 cells/well), which already contain the antiviral compounds. Typically, these plates contain a 5-fold serial dilution of 9 dilution steps of the test compound at 200 times the final concentration in 100% DMSO (200 nL). […] Finally, each plate contains wells which are assigned as virus controls (containing cells and virus in the absence of compound), cell controls (containing cells in the absence of virus and compound) and medium controls (containing medium in the absence of cells, virus and compounds). To the wells assigned as medium control, 25 μL of culture medium was added instead of Vero cells. Once the cells were added to the plates, the plates were incubated for 30 minutes at room temperature to allow the cells to distribute evenly within the wells. Next, the plates were incubated in a fully humidified incubator (37° C., 5% CO2) until the next day. Then, DENV-2 strain 16681, labeled with eGFP, was added at a multiplicity of infection (MOI) of 0.5. Therefore, 15 μL of virus suspension was added to all the wells containing test compound and to the wells assigned as virus control. In parallel, 15 μL of culture medium was added to the medium and cell controls. Next, the plates were incubated for 3 days in a fully humidified incubator (37° C., 5% CO2). At the day of the read out, the eGFP fluorescence was measured using an automated fluorescence microscope at 488 nm (blue laser). Using an in-house LIMS system, inhibition dose response curves for each compound were calculated and the half maximal effective concentration (EC50) was determined. Therefore, the percent inhibition (I) for every test concentration is calculated using the following formula: I=100*([…])/(SVC−SCC); ST, SCC and SVC are the amount of eGFP signal in the test compound, cell control and virus control wells, respectively. The EC50 represents the concentration of a compound at which the virus replication is inhibited with 50%, as measured by a 50% reduction of the eGFP fluorescent intensity compared to the virus control. The EC50 is calculated using linear interpolation (Table 1).

A further data set relates to DENV-1 strain TC974#666. Put plainly: Tetravalent RT-qPCR assay Protocol A, serotype 1. As to conditions: RT-qPCR serotype 1 TC974#666. As for the experimental part:
as §1, §2, §3, §4, §5

Another data set has as its system DENV-2 strain 16681. As to the kind of experiment: Tetravalent RT-qPCR assay Protocol A, serotype 2. To be noted: RT-qPCR serotype 2 16681. As for the experimental part:
as §1, §2, §3, §4, §5

The subject of the next data set is DENV-3 strain H87. Put plainly: Tetravalent RT-qPCR assay Protocol A, serotype 3. To be noted: RT-qPCR serotype 3 H87. The procedure:
as §1, §2, §3, §4, §5

For data set [2], the system named is DENV-4 strain EDEN (SG/06K2270DK1/2005). As to the kind of experiment: Tetravalent RT-qPCR assay Protocol A, serotype 4 EDEN. As to conditions: RT-qPCR serotype 4 EDEN. The procedure:
as §1, §2, §3, §4, §5

On to `COc1cc(NC(C(=O)c2c[nH]c3ccc(C(F)(F)F)cc23)c2ccc(Cl)cc2OCCO)cc(S(C)(=O)=O)c1` (single isomer, unassigned) [Compound 9B, 2-(4-chloro-2-(2-hydroxyethoxy)phenyl)-2-((3-methoxy-5-(methylsulfonyl)phenyl)amino)-1-(5-(trifluoromethyl)-1H-indol-3-yl)ethanone], for which the SI in the data set with DENV-4 strain H241 is above 409; in data set [1], above 39700; with DENV-1 strain TC974#666, above 38700; in the data set on DENV-2 strain 16681 it was above 49900; with DENV-3 strain H87 it was 1970.

Turning to `COc1cc(NC(C(=O)c2c[nH]c3c(C)c(F)ccc23)c2ccc(Cl)cc2OCCO)cc(S(C)(=O)=O)c1` (single isomer, unassigned) [Compound 4A, 2-(4-chloro-2-(2-hydroxyethoxy)phenyl)-1-(6-fluoro-7-methyl-1H-indol-3-yl)-2-((3-methoxy-5-(methylsulfonyl)phenyl)amino)ethanone], the SI in the data set on DENV-4 strain H241 is recorded as 24; in data set [1], above 23200; in data set [2], above 2455; in the data set on DENV-1 strain TC974#666 it was above 2160; in the data set with DENV-2 strain 16681, 40100; with DENV-3 strain H87, above 173.

`COc1cc(NC(C(=O)c2c[nH]c3c(C)cc(OC(F)(F)F)cc23)c2ccc(Cl)cc2OCCO)cc(S(C)(=O)=O)c1` (single isomer, unassigned) [Compound 12B, 2-(4-chloro-2-(2-hydroxyethoxy)phenyl)-2-((3-methoxy-5-(methylsulfonyl)phenyl)amino)-1-(7-methyl-5-(trifluoromethoxy)-1H-indol-3-yl)ethanone]: the SI in the data set on DENV-4 strain H241 is 514; in data set [1], above 390600; in the data set on DENV-1 strain TC974#666, above 26700; in the data set on DENV-2 strain 16681, above 56600; in the data set on DENV-3 strain H87, 2720.

For `COc1cc(NC(C(=O)c2c[nH]c3cc(F)ccc23)c2ccc(Cl)cc2OCCO)cc(S(C)(=O)=O)c1` (single isomer, unassigned) [Compound 1A, 2-(4-chloro-2-(2-hydroxyethoxy)phenyl)-1-(6-fluoro-1H-indol-3-yl)-2-((3-methoxy-5-(methylsulfonyl)phenyl)amino)ethanone], the SI was above 29 in the data set on DENV-4 strain H241; above 13500 in data set [1]; above 2200 in the data set on DENV-1 strain TC974#666; 29700 with DENV-2 strain 16681; above 421 in the data set on DENV-3 strain H87.

As to `COc1cc(NC(C(=O)c2c[nH]c3ccc(OC(F)(F)F)cc23)c2ccc(Cl)cc2OCCO)cc(S(C)(=O)=O)c1` (single isomer, unassigned) [Compound 10B, 2-(4-chloro-2-(2-hydroxyethoxy)phenyl)-2-((3-methoxy-5-(methylsulfonyl)phenyl)amino)-1-(5-(trifluoromethoxy)-1H-indol-3-yl)ethanone], the SI is reported as above 331 with DENV-4 strain H241; above 42700 in data set [1]; above 41300 in the data set with DENV-1 strain TC974#666; above 62800 in the data set on DENV-2 strain 16681; above 2220 in the data set on DENV-3 strain H87.

For the compound `COc1cc(NC(C(=O)c2c[nH]c3cc(OC)c(OC(F)(F)F)cc23)c2ccc(Cl)cc2OCCO)cc(S(C)(=O)=O)c1` (single isomer, unassigned) [Compound 11B, 2-(4-chloro-2-(2-hydroxyethoxy)phenyl)-2-((3-methoxy-5-(methylsulfonyl)phenyl)amino)-1-(6-methoxy-5-(trifluoromethoxy)-1H-indol-3-yl)ethanone], the SI in the data set on DENV-4 strain H241 was 202; in data set [1], above 26400; with DENV-1 strain TC974#666, above 26300; with DENV-2 strain 16681 it was above 46200; in the data set with DENV-3 strain H87, above 2210.

As for `COc1cc(NC(C(=O)c2c[nH]c3c(C)c(F)ccc23)c2ccc(Cl)cc2OCCO)cc(S(C)(=O)=O)c1` (racemic) [Compound 4, 2-(4-chloro-2-(2-hydroxyethoxy)phenyl)-1-(6-fluoro-7-methyl-1H-indol-3-yl)-2-((3-methoxy-5-(methylsulfonyl)phenyl)amino)ethanone], in data set [1], the SI was above 7400.

For the compound `COc1cc(NC(C(=O)c2c[nH]c3cc(F)c(C)cc23)c2ccc(Cl)cc2OCCO)cc(S(C)(=O)=O)c1` (single isomer, unassigned) [Compound 8A, 2-(4-chloro-2-(2-hydroxyethoxy)phenyl)-1-(6-fluoro-5-methyl-1H-indol-3-yl)-2-((3-methoxy-5-(methylsulfonyl)phenyl)amino)ethanone], the SI in the data set on DENV-4 strain H241 came out at 93; in data set [1] it was 25900; in the data set on DENV-1 strain TC974#666 it was 17200; in the data set on DENV-2 strain 16681, 89000; in the data set with DENV-3 strain H87, 1020.

Turning to `COc1cc(NC(C(=O)c2c[nH]c3cc(F)ccc23)c2ccc(Cl)cc2OCCO)cc(S(C)(=O)=O)c1` (racemic) [Compound 1, 2-(4-chloro-2-(2-hydroxyethoxy)phenyl)-1-(6-fluoro-1H-indol-3-yl)-2-((3-methoxy-5-(methylsulfonyl)phenyl)amino)ethanone], the SI in data set [1] came out at 11800.

Consider `COc1cc(NC(C(=O)c2c[nH]c3cc(Cl)ccc23)c2ccc(Cl)cc2OCCO)cc(S(C)(=O)=O)c1` (racemic) [Compound 2, 1-(6-chloro-1H-indol-3-yl)-2-(4-chloro-2-(2-hydroxyethoxy)phenyl)-2-((3-methoxy-5-(methylsulfonyl)phenyl)amino)ethanone], for which the SI in data set [1] is given as above 10300.
